From article PMC10840515 come the findings set out here.

For this assay, the target named is HLA-DR1 (HLA-DRA*0101, HLA-DRB1*0101) (human). The assay can be described thus: ELISA.

Take SARS-CoV-2 Membrane peptide M176-190: the IC50 (in general, the concentration that inhibits the measured activity by half) was determined as 7.9 nM.
